A mixed list of measured activities; the numbers were collected in NIAID ChemDB.

All rows: cytotoxicity tests; cell line: PBMC; endpoint: CC50

Conditions beyond the fields shown may differ between rows.

compound | conditions | method | value
Cc1cn([C@H]2C=C[C@@H](COC(=O)NCCC3=CCCCC3)O2)c(=O)[nH]c1=O | - | tetrazolium | >100 µM
O=C(NCCc1ccc2c(n1)NCCC2)Nc1cccc2ncccc12 | - | - | 1.3 µM
O=c1[nH]cnc2c1ncn2[C@@H]1C[C@H](CO)C(F)(F)C1 | - | - | >100 µM
COc1cc2ccnc3c2c(c1OCCCCCCOc1c(OC)cc2ccnc4c2c1N(C)C=C4)N(C)C=C3 | - | - | <1 µM
CCCCCCCS(=O)(=O)c1ccccc1OC(C)=O | - | MTT | 205 µM
Cc1cn(C[C@H]2C[C@H]2CO)c(=O)[nH]c1=O | - | - | >100 µM
COC(=O)[C@H](C)NP(=O)(OC[C@@H]1C=C[C@H](n2cc(C)c(=O)[nH]c2=O)O1)Oc1ccccc1 | - | - | >10 µM
COc1ccc(OC(=O)NCC2CCc3ccccc3N2)cc1 | - | - | 50 µM
COC(=O)[C@H](C)NP(=O)(OC[C@@H]1C=C[C@H](n2cc(C)c(=O)[nH]c2=O)O1)Oc1ccc(Br)cc1 | - | - | >10 µM
Nc1ncnc2c1ncn2[C@@H]1OC[C@H](/C=C/P(=O)(O)O)C12CC2 | - | - | >100 µM
Cc1cn([C@H]2C[C@H](N=[N+]=[N-])[C@@H](CO)O2)c(=O)[nH]c1=O | - | trypan blue | >100 µM
Nc1ccn([C@@H]2C[C@H](CO)C(F)(F)C2)c(=O)n1 | - | - | >100 µM
COc1cc2c3c(ccnc3c1OC)NC=C2 | - | - | <1 µM
CC(C)(C)C(=O)OCOP(=O)(CC[C@H]1O[C@@H](n2cnc3c(=O)[nH]c(N)nc32)[C@](C)(F)[C@@H]1O)OCOC(=O)C(C)(C)C | - | - | >100 µM
CC(NC(=O)NCCc1ccc2c(n1)NCCC2)c1cccc2ccccc12 | - | - | 50 µM
COc1ccc(OC)c(CCNC(=O)OC[C@@H]2C=C[C@H](n3cc(C)c(=O)[nH]c3=O)O2)c1 | - | tetrazolium | >100 µM
CCOC(=O)[C@H](C)NP(=O)(OC[C@@H]1OC[C@H](n2cnc3c(NC(C)=O)nc(N)nc32)O1)Oc1ccccc1 | - | - | >100 µM
O=C(NCCc1ccc2c(n1)NCCC2)Nc1ccc(OCCN2CCOCC2)c(F)c1 | - | - | 50 µM
CSc1ccccc1OC(C)=O | - | MTT | 340 µM
COc1ccccc1CCNC(=O)OC[C@@H]1C=C[C@H](n2cc(C)c(=O)[nH]c2=O)O1 | - | tetrazolium | >100 µM
O=C(Nc1nc2ccc(C(F)(F)F)cc2s1)c1cnc(C(F)(F)F)s1 | - | flow cytometry | 2.509 µM
Nc1cccc(CCNC(=O)Nc2cccc(F)c2)n1 | - | - | 50 µM
CCCCC#CCSc1ccccc1OC(C)=O | - | MTT | 105 µM
CCCCCCCCCCCCCC(=O)Nc1nc(N)nc2c1ncn2[C@H]1CO[C@@H](COP(=O)(N[C@@H](C)C(=O)OCC)Oc2ccccc2)O1 | - | - | 9.9 µM
O=C(CNC(=O)COc1ccccc1)NCc1ccc(C(=O)N2CCCCC2)cc1 | - | MTS | >100 µM
O=c1[nH]cnc2c1ncn2[C@@H]1C=C(F)[C@H](CO)C1 | - | - | >100 µM
CCCCCCCCCCCCN1C=Cc2nccc3cc(OC)c(OC)c1c23 | - | - | <1 µM
CCCCCC(=O)Nc1nc(N)nc2c1ncn2[C@H]1CO[C@@H](COP(=O)(N[C@@H](C)C(=O)OCC)Oc2ccccc2)O1 | - | - | >100 µM
Cc1c(-c2c([C@H](OC(C)(C)C)C(=O)O)cnc3ccccc23)cc(F)c2c1CCCO2 | - | - | 116 µM
Nc1ncnc2c1ncn2[C@@H]1CC(CO)=C[C@H]1O | - | trypan blue | >100 µM
O=C(Nc1ccc(C(F)(F)F)cc1)NC1CCc2ccccc2C1 | - | - | 3.5 µM
CCCCCCCC(=O)Nc1nc(N)nc2c1ncn2[C@H]1CO[C@@H](COP(=O)(N[C@@H](C)C(=O)OCC)Oc2ccccc2)O1 | - | - | >100 µM
Nc1ncnc2c1ncn2[C@H]1C=C(F)[C@@H](CO)C1 | - | - | >100 µM
CCCS(=O)(=O)Oc1c(OC)cc2ccnc3c2c1N(C)C=C3 | - | - | 1 µM
CCCCc1cn(-c2cccc(S(=O)(=O)Nc3cccc4cnccc34)c2)nn1 | 24 h | fluorescence | 219 µM
Nc1nc2c(ncn2[C@@H]2OC[C@H](/C=C/P(=O)(O)O)C23CC3)c(=O)[nH]1 | - | - | >100 µM
Cc1cn(C[C@H]2C[C@H]2[C@H](O)CO)c(=O)[nH]c1=O | - | - | >100 µM
CCCCCCCCCN1C=Cc2nccc3cc(OC)c(OC)c1c23 | - | - | 1.4 µM
Cc1cn([C@@H]2CC(CO)=C[C@H]2O)c(=O)[nH]c1=O | - | trypan blue | >100 µM
CCCCCCCCCC(=O)Nc1nc(N)nc2c1ncn2[C@H]1CO[C@@H](COP(=O)(N[C@@H](C)C(=O)OCC)Oc2ccccc2)O1 | - | - | 67 µM
Nc1ccc2c(O)c(Br)c(S(=O)(=O)O)cc2c1Br | - | - | 500 µM
Cc1cn([C@H]2C=C[C@@H](COC(=O)NCCc3ccccc3F)O2)c(=O)[nH]c1=O | - | tetrazolium | >100 µM

For reference, 3 entries again:

compound | conditions | method | value
COC(=O)[C@H](C)NP(=O)(OC[C@@H]1C=C[C@H](n2cc(C)c(=O)[nH]c2=O)O1)Oc1ccc(Br)cc1 | - | - | >10 µM
COc1ccccc1CCNC(=O)OC[C@@H]1C=C[C@H](n2cc(C)c(=O)[nH]c2=O)O1 | - | tetrazolium | >100 µM
CCCCCCCS(=O)(=O)c1ccccc1OC(C)=O | - | MTT | 205 µM

An empty or dashed field is not shown. CCn: concentration that lowers growth or viability of the cells by n%.